Results of unrelated studies side by side (data: NIAID ChemDB).

Common to all: enzyme or target tests; organism: HIV-1; protein: RNase H

Rows are shuffled and stem from different studies.

O=C1Cc2ccc(-c3ccco3)cc2C(=O)N1O ; method: RNase H / substrate cleavage / fluorescence ; endpoint: IC50 ; value: 0.65 µM
O=c1[nH]c(-c2ccc(O)c(O)c2)nc2sc3c(c12)CCCCC3 ; mutations: p66wt/p52C280A HIV-1 RT ; method: RNase H / fluorescence ; endpoint: IC50 ; value: 0.24 µM
CC(C)=CC[C@H]1C[C@@]23C[C@@H](CC=C(C)C)C(C)(C)[C@@](CC=C(C)C)(C(=O)C(C(=O)c4ccc(O)c(O)c4)=C2OC1(C)C)C3=O ; method: RNase H / fluorescence ; endpoint: IC50 ; value: 29 µM
Nc1nc2c(ncn2[C@@H]2O[C@H](COP(=O)(O)O[C@H]3[C@@H](F)[C@H](n4cnc5c(NCc6ccc7ccccc7c6)ncnc54)O[C@@H]3CO)[C@@H](O)[C@H]2O)c(=O)[nH]1 ; method: RNase H ; endpoint: IC50 ; value: 20 µM
CCOC(=O)C(=O)CC(=O)/C=C/c1cc(-c2ccccc2)cn1Cc1ccc(F)cc1 ; mutations: R557A ; method: substrate cleavage / fluorescence ; endpoint: IC50 ; value: 50 µM
CC(=O)COc1ccc2c(c1OC(C)=O)C(=O)c1ccccc1C2=O ; method: RNase H ; endpoint: IC50 ; value: >100 µM
Cc1ccc(Cn2cccc2/C=C/C(=O)CC(=O)C(=O)O)c(C)c1 ; mutations: Y501A ; method: substrate cleavage / fluorescence ; endpoint: IC50 ; value: >100 µM
COc1c(/C=C/C(=O)c2cccc([N+](=O)[O-])c2)ccc2ccccc12 ; method: RNase H / substrate cleavage ; endpoint: IC50 ; value: 31 µM
Oc1cc(O)c2c(c1)O[C@H](c1cc(O)c(O)c(O)c1)[C@H](O)C2 ; method: FRET ; endpoint: IC50 ; value: >20 µM
C/C(COc1ccc2c(c1O)C(=O)c1ccccc1C2=O)=N\NC(=O)c1cccnc1 ; method: RNase H ; endpoint: IC50 ; value: 90 µM
O=C(/C=C/c1cccn1Cc1ccc(F)cc1)CC(=O)C(=O)O ; method: substrate cleavage / fluorescence ; endpoint: IC50 ; value: 16.1 µM
Cc1cc(O)c2c(c1)C(=O)c1cc(OCC(=O)c3ccc(Br)cc3)cc(O)c1C2=O ; method: RNase H ; endpoint: IC50 ; value: 29 µM
CC(C)(O)[C@H]1CC=C(COC2O[C@@H](CO[C@H]3OC[C@H](O)[C@@H](O)[C@@H]3O)[C@H](O)[C@@H](O)[C@@H]2O)CC1 ; method: FRET ; endpoint: IC50 ; value: >20 µM
Cn1c(=O)c2c(nc3n2CC(O)CN3c2ccc(O)cc2)n(C)c1=O ; method: RNase H / gel ; endpoint: IC50 ; value: 111 µM
COCOC[C@@]12[C@H](O)C[C@@H](C)[C@]3(C[C@@H](c4ccoc4)OC3=O)[C@H]1CCC(=O)[C@]21CO1 ; method: RNase H / fluorescence ; endpoint: IC50 ; value: >100 µM
COC(=O)c1c(C)cc(OC)c(O)c(=O)c1OC ; method: RNase H / fluorescence ; endpoint: IC50 ; value: 13.5 µM
COc1ccc(-c2nc3sc4c(c3c(=O)o2)CCCCC4)cc1 ; method: RNase H / fluorescence ; endpoint: IC50 ; value: 14.1 µM
CC(=O)Oc1ccc(OC(C)C(C)=O)c2c1C(=O)c1ccccc1C2=O ; endpoint: IC50 ; value: >100 µM
O=C(NCc1ccc(F)cc1)C1C(=O)N(O)C(=O)c2ccccc21 ; method: RT activity / RNase H / radiometric ; endpoint: IC50 ; value: 0.36 µM
O=C(Nc1sc2c(c1C(=O)Nc1ccccn1)CCCCC2)c1ccccc1Cl ; method: RNase H / fluorescence ; endpoint: IC50 ; value: 23.9 µM
O=C1c2ccccc2C(=O)c2c1ccc(O)c2O ; method: RNase H ; endpoint: IC50 ; value: >100 µM
O=C(Cc1ccccc1F)Nc1sc2c(c1C(=O)Nc1ccccn1)CCCCC2 ; method: RNase H / fluorescence ; endpoint: IC50 ; value: >50 µM
CCCCCC(=O)Oc1ccc(O)c2c1C(=O)c1ccccc1C2=O ; endpoint: IC50 ; value: >100 µM
COc1ccccc1NC(=O)c1c(N)sc2c1CCCCC2 ; method: RNase H / fluorescence ; endpoint: IC50 ; value: 91.3 µM
O=C(/C=C/c1cccn1Cc1ccccc1Cl)CC(=O)C(=O)O ; mutations: Y501A ; method: substrate cleavage / fluorescence ; endpoint: IC50 ; value: >100 µM
COc1c(/C=C/C(=O)c2ccc(Br)cc2)ccc2ccccc12 ; method: RNase H / substrate cleavage ; endpoint: IC50 ; value: 47 µM
CC(=O)COc1ccc2c(c1O)C(=O)c1ccccc1C2=O ; method: RNase H ; endpoint: IC50 ; value: >100 µM
C#CCOc1ccc(OC(C)=O)c2c1C(=O)c1ccccc1C2=O ; endpoint: IC50 ; value: >100 µM
Nc1nc(OCCc2ccc([N+](=O)[O-])cc2)c2ncn([C@@H]3O[C@H](COP(O)(=S)O[C@H]4[C@@H](F)[C@H](n5cnc6c(N)ncnc65)O[C@@H]4CO)[C@@H](O)[C@H]3O)c2n1 ; method: RNase H ; endpoint: Ki ; value: 11.5 µM
O=C(NCc1ccc(F)cc1)C1C(=O)N(O)C(=O)c2ccccc21 ; method: RNase H / radiometric ; endpoint: IC50 ; value: 0.36 µM
CC(C)(O)[C@H]1CC[C@@](C)(O[C@H]2O[C@@H](CO)[C@H](O)[C@@H](O)[C@@H]2O)[C@H](O)C1 ; method: FRET ; endpoint: IC50 ; value: >20 µM
C=C1CCC[C@H]2[C@](C)(CC3=C(O)C(=O)C=C(OC)C3=O)[C@@H](C)CC[C@]12C ; method: RT activity ; endpoint: IC50 ; value: 5.4 µg/mL
COC(=O)[C@]1(O)C[C@@H](O)[C@@H](O)[C@H](OC(=O)/C=C/c2ccc(O)c(O)c2)C1 ; method: FRET ; endpoint: IC50 ; value: >20 µM
Cc1ccc(Cl)cc1Nc1nc(C(F)(F)F)ccc1C(=O)NN1CCN(c2cccc(Cl)c2)CC1 ; mutations: V108A ; method: RNase H / absorbance ; endpoint: IC50 ; value: >100 µM
O=C(Cc1nc(=O)n(O)c2ncccc12)NCc1ccccc1 ; method: radiometric ; endpoint: IC50 ; value: 0.032 µM
Cc1cc(O)c2c(c1)C(=O)c1cc(OCC(=O)c3ccccc3)cc(O)c1C2=O ; method: RNase H ; endpoint: IC50 ; value: >100 µM
CC(C)=CCC/C(C)=C/CC/C(C)=C/CC/C(C)=C/CC/C(C)=C/CC/C(C)=C/Cc1cc(O)ccc1O ; method: nucleotide incorporation ; endpoint: IC50 ; value: >200 µM
C#CC(O)/C=C/C/C=C/C=C/C=C/CC#CC(O)C#CC/C=C/C=C/C=C/CC(O)C#C ; method: radiometric ; endpoint: IC50 ; value: >100 µM
O=C(NCc1ccc(F)cc1)C1C(=O)N(O)C(=O)c2ccccc21 ; endpoint: IC50 ; value: 0.36 µM
O=C(Nc1sc2c(c1C(=O)Nc1ccccn1)CCCCC2)c1ccc(Cl)cc1Cl ; method: RNase H / fluorescence ; endpoint: IC50 ; value: 12.24 µM
O=c1oc(-c2ccccc2F)nc2sc3c(c12)CCCCC3 ; method: RNase H / fluorescence ; endpoint: IC50 ; value: 34.9 µM
COCOCC1=C2[C@H](CO[C@@H]3O[C@@H](CO)[C@@H](O)[C@H](O)[C@@H]3OCOC)C[C@@H](C)[C@]3(C[C@@H](c4ccoc4)OC3=O)[C@H]2CCC1 ; method: RNase H / luminescence ; endpoint: IC50 ; value: >100 µM
COC(=O)c1cc(O)c(O)c(=O)cc1C ; method: RNase H / fluorescence ; endpoint: IC50 ; value: 0.28 µM
CC(=O)C(C)Oc1ccc(O)c2c1C(=O)c1ccccc1C2=O ; endpoint: IC50 ; value: >66 µM
O=C(CC1CCCCC1)Nc1sc2c(c1C(=O)Nc1ccccn1)CCCCC2 ; method: RNase H / fluorescence ; endpoint: IC50 ; value: 67.1 µM
CC(C)OC(=O)c1cc(NC(=S)OC(C)C)ccc1Cl ; endpoint: IC50 ; value: >300 µM
O=C(Nc1sc2c(c1C(=O)Nc1ccccn1)CCCCC2)c1ccccc1 ; method: RNase H / fluorescence ; endpoint: IC50 ; value: 14.8 µM
COc1c(/C=C/C(=O)c2ccc(Cl)cc2)ccc2ccccc12 ; method: RNase H / substrate cleavage ; endpoint: IC50 ; value: 76 µM
COC(=O)c1c(Br)c(OC)c2c(c1-c1c3c(c(OC)c(Br)c1C(=O)OC)OCO3)OCO2 ; strain or isolate: IIIB ; endpoint: IC50 ; value: 0.016 µM
O=C(Nc1ccccn1)c1c(NC(=O)C2CCCCC2)sc2c1CCCCC2 ; method: RNase H / fluorescence ; endpoint: IC50 ; value: 16.6 µM

A second listing of 3 rows from above:

structure	mutations	strain or isolate	method	endpoint	value
COC(=O)c1cc(O)c(O)c(=O)cc1C	-	-	RNase H / fluorescence	IC50	0.28 µM
CC(=O)COc1ccc2c(c1O)C(=O)c1ccccc1C2=O	-	-	RNase H	IC50	>100 µM
CC(C)=CCC/C(C)=C/CC/C(C)=C/CC/C(C)=C/CC/C(C)=C/CC/C(C)=C/Cc1cc(O)ccc1O	-	-	nucleotide incorporation	IC50	>200 µM

Blank or dashed fields: not listed here. ICn: concentration for n% inhibition.